Pooled drug test results. Numbers come from NIAID ChemDB, via PubChem.

All rows: tests in culture; species: Candida albicans; read-out: MFC

Lines come from different laboratories, so protocols vary. Blank or dashed fields: not listed here.

structure	strain or isolate	result
C[C@@H]1CC[C@@]2(OC1)O[C@H]1C[C@H]3[C@@H]4CC=C5C[C@@H](O)[C@H](O)[C@@H](O[C@@H]6OC[C@@H](O)[C@H](O)[C@H]6O[C@@H]6O[C@@H](C)[C@H](O)[C@@H](O)[C@H]6O)[C@]5(C)[C@H]4CC[C@]3(C)[C@@]1(O)[C@@H]2C		20 µg/mL
Cc1cc(O)c2c(c1)C(=O)C=CC2=O		20 µg/mL
CCC(C)(C)c1ccc(CC(C)CN2C[C@@H](C)O[C@@H](C)C2)cc1		64 µg/mL
CCC(C)CC(C)CCCCCCCCC(=O)NC1C[C@@H](O)[C@@H](O)NC(=O)[C@@H]2[C@@H](O)CCN2C(=O)[C@H]([C@@H](O)CC(N)=O)NC(=O)[C@H]([C@H](O)[C@@H](O)c2ccc(OP(=O)([O-])O)cc2)NC(=O)[C@@H]2C[C@@H](O)CN2C(=O)[C@H]([C@H](C)O)NC1=O.[Na+]	MY1055	2 µg/mL
O=C1C(c2ccc(Cl)cc2)=[N+]([O-])c2cccnc21		15.63 µg/mL
N=C(N)c1ccc2c(c1)[nH]c1cc(C(=N)N)ccc12	A39	1.56 µg/mL
O=C1C(c2ccccc2)=[N+]([O-])c2ccccc21		7.81 µg/mL
C[C@@H]1CC[C@@]2(OC1)O[C@H]1C[C@H]3[C@@H]4CC=C5C[C@@H](O)[C@H](O)[C@@H](O[C@@H]6OC[C@@H](O)[C@H](O)[C@H]6O[C@@H]6O[C@@H](C)[C@H](O)[C@@H](O)[C@H]6O)[C@]5(C)[C@H]4CC[C@]3(C)[C@H]1[C@@H]2C		≥20 µg/mL
CC(C)(CS(=O)(=O)[O-])N(Cl)Cl	ATCC 10231	32 µg/mL
COc1cc(O)c(C(C)=O)c(OC)c1	FCF-243	>500 µg/mL
CN(C/C=C/C#CC(C)(C)C)Cc1cccc2ccccc12		128 µg/mL
C=C(Cl)/C=C/[C@H](O)CC(=C)C[C@H]1OC2[C@@H](O)[C@]3(O)C[C@@H](O)[C@H](C)[C@H](CCC/C=C\[C@@H]4C[C@@H](O)C[C@]5(C[C@H](OC)CC(CC(=O)[C@@H](C)[C@H](OC(C)=O)[C@@H](C)C(=C)C[C@@H]6C[C@@](C)(O)C[C@]7(C[C@H](OC(C)=O)CC(CC(=O)O[C@@H]([C@@H]1O)[C@H]2C)O7)O6)O5)O4)O3	ATCC64124	6.25 µg/mL
O=C1C(c2ccccn2)=[N+]([O-])c2ccccc21		15.63 µg/mL
CCC(C)CC(C)CCCCCCCCC(=O)NC1C[C@@H](O)[C@@H](O)NC(=O)[C@@H]2[C@@H](O)CCN2C(=O)[C@H]([C@@H](O)CC(N)=O)NC(=O)[C@H]([C@H](O)[C@@H](O)c2ccc(OP(=O)([O-])O)cc2)NC(=O)[C@@H]2C[C@@H](O)CN2C(=O)[C@H]([C@H](C)O)NC1=O.[Na+]	MY1028	4 µg/mL
COC(=O)C1=CC[C@@]23CC[C@@H]([C@@](C)(/C=C/C=C(\C)C(=O)O)OC2=O)[C@@]3(O)CC1	Isolate B311	6.25 µg/mL
O=[N+]([O-])/C=C/c1c[nH]c2ccccc12		>1600 µg/mL
O=C1C(c2ccc(Cl)cc2)=[N+]([O-])c2ccccc21		>12.5 µg/mL
C=C(CCC1(OC)O[C@H]2C[C@H]3[C@@H]4CC=C5C[C@@H](O)[C@H](O)[C@@H](O[C@@H]6OC[C@@H](O)[C@H](O)[C@H]6O)[C@]5(C)[C@H]4CC[C@]3(C)[C@H]2[C@@H]1C)CO[C@@H]1O[C@H](CO)[C@@H](O)[C@H](O)[C@H]1O		≥20 µg/mL
C=C1/C=C(\C)[C@H](CC)OC(=O)[C@H](C)C(=O)C(O)(CO)C/C(OC)=C/[C@@H](C)C1	ATCC 90028	10 µg/mL
COc1ccc(C2=[N+]([O-])c3ccccc3C2=O)cc1		>125 µg/mL
CCC(C)n1ncn(-c2ccc(N3CCN(c4ccc(OC[C@H]5CO[C@](Cn6cncn6)(c6ccc(Cl)cc6Cl)O5)cc4)CC3)cc2)c1=O		32 µg/mL
CC1=CC(=O)c2c(O)cccc2C1=O		>1000 µg/mL
CCOP(=O)(O)CC(C)(C)N(Cl)Cl	ATCC 10231	32 µg/mL
C[C@@H]1CC[C@@]2(OC1)O[C@H]1C[C@H]3[C@@H]4CC=C5C[C@@H](O)[C@H](O)[C@@H](O[C@@H]6OC[C@@H](O)[C@H](O)[C@H]6O)[C@]5(C)[C@H]4CC[C@]3(C)[C@@]1(O)[C@@H]2C		≥20 µg/mL

Again, the opening 2 rows:

structure	strain or isolate	result
C[C@@H]1CC[C@@]2(OC1)O[C@H]1C[C@H]3[C@@H]4CC=C5C[C@@H](O)[C@H](O)[C@@H](O[C@@H]6OC[C@@H](O)[C@H](O)[C@H]6O[C@@H]6O[C@@H](C)[C@H](O)[C@@H](O)[C@H]6O)[C@]5(C)[C@H]4CC[C@]3(C)[C@@]1(O)[C@@H]2C		20 µg/mL
Cc1cc(O)c2c(c1)C(=O)C=CC2=O		20 µg/mL